Measurements reported in PubChem BioAssay AID1259414 (Drosophila RNAi Screening Center, 2018).

Aim: 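Genome-wide screen for host control of endosymbiont load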 (primary screen)
Cell system: Drosophila JW18 cells infected with Wolbachia
Reagent: long dsRNA against Drosophila genes, 0.25 µg dsRNA per well of a 384-well plate
Duration: 5 days
Challenge: cells persistently infected with Wolbachia before knock-down; no added drug
Measurement: 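Automated imaging of bacterial rRNA staining divided by host cell count, reported as plate-normalised robust z-score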
Scale: Wolbachia per cell robust z: higher = more Wolbachia per host cell than the plate typical
Call rule: 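Hit when robust z is 1.5 or more, or -1.5 or less, in at least two of three replicates; excludes dsRNAs with several or no targets, genes not expressed in JW18 and well A1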
The deposit covers about 24,000 reagents; below is an unselected part of those with a known target gene and a result. In the full data, about 1,210 (5%) are marked active. 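Inactive calls also include excluded dsRNAs with several or no targets, genes unexpressed in JW18, and well A1, regardless of score.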 Unmarked entries are inactive. Names joined by + are all predicted targets of the reagent.

dgrn [DRSC12154]
- Wolbachia per cell robust z, rep 1: 0.56
- Wolbachia per cell robust z, rep 2: 0.641
- Wolbachia per cell robust z, rep 3: 0.258

Pop1 [DRSC17739]
- Wolbachia per cell robust z, rep 1: 0.534
- Wolbachia per cell robust z, rep 2: -6.43
- Wolbachia per cell robust z, rep 3: 0.656

CG32488 [DRSC08549]
- Wolbachia per cell robust z, rep 1: -1.82
- Wolbachia per cell robust z, rep 2: 0.207
- Wolbachia per cell robust z, rep 3: 0.606

CG32488 [DRSC21537]
- Wolbachia per cell robust z, rep 1: -1.24
- Wolbachia per cell robust z, rep 2: 0.351
- Wolbachia per cell robust z, rep 3: -0.262

lectin-37Db [DRSC03279]
- Wolbachia per cell robust z, rep 1: -0.451
- Wolbachia per cell robust z, rep 2: -1.15
- Wolbachia per cell robust z, rep 3: 0.214

CG11537 [DRSC08200]
- Wolbachia per cell robust z, rep 1: 0.616
- Wolbachia per cell robust z, rep 2: 0.768
- Wolbachia per cell robust z, rep 3: 0.43

CG1622 [DRSC19745]
- Wolbachia per cell robust z, rep 1: 0.0568
- Wolbachia per cell robust z, rep 2: -8.93
- Wolbachia per cell robust z, rep 3: -0.403

CG1622 [DRSC28342]
- Wolbachia per cell robust z, rep 1: -1.2 (active)
- Wolbachia per cell robust z, rep 2: -1.99
- Wolbachia per cell robust z, rep 3: -1.74

Entries listed so far whose gene name begins with C or c:
CG32488 [DRSC08549]
- Wolbachia per cell robust z, rep 1: -1.82
- Wolbachia per cell robust z, rep 2: 0.207
- Wolbachia per cell robust z, rep 3: 0.606

CG32488 [DRSC21537]
- Wolbachia per cell robust z, rep 1: -1.24
- Wolbachia per cell robust z, rep 2: 0.351
- Wolbachia per cell robust z, rep 3: -0.262

CG11537 [DRSC08200]
- Wolbachia per cell robust z, rep 1: 0.616
- Wolbachia per cell robust z, rep 2: 0.768
- Wolbachia per cell robust z, rep 3: 0.43

CG1622 [DRSC19745]
- Wolbachia per cell robust z, rep 1: 0.0568
- Wolbachia per cell robust z, rep 2: -8.93
- Wolbachia per cell robust z, rep 3: -0.403

CG1622 [DRSC28342]
- Wolbachia per cell robust z, rep 1: -1.2 (active)
- Wolbachia per cell robust z, rep 2: -1.99
- Wolbachia per cell robust z, rep 3: -1.74

Continued.
kl-5 [DRSC20707]
- Wolbachia per cell robust z, rep 1: -0.0891
- Wolbachia per cell robust z, rep 2: 0.000528
- Wolbachia per cell robust z, rep 3: -1.51

kl-5 [DRSC20736]
- Wolbachia per cell robust z, rep 1: -2.72
- Wolbachia per cell robust z, rep 2: 0.436
- Wolbachia per cell robust z, rep 3: -9.9

kl-5 [DRSC20773]
- Wolbachia per cell robust z, rep 1: -2.99
- Wolbachia per cell robust z, rep 2: -1.66
- Wolbachia per cell robust z, rep 3: -1.12

kl-5 [DRSC21161]
- Wolbachia per cell robust z, rep 1: -1.03
- Wolbachia per cell robust z, rep 2: 0.676
- Wolbachia per cell robust z, rep 3: -2.79

kl-5 [DRSC38712]
- Wolbachia per cell robust z, rep 1: -0.0834
- Wolbachia per cell robust z, rep 2: 0.0978
- Wolbachia per cell robust z, rep 3: 0.107

CG31559 [DRSC12172]
- Wolbachia per cell robust z, rep 1: 0.268
- Wolbachia per cell robust z, rep 2: -0.225
- Wolbachia per cell robust z, rep 3: -0.378

CG31559 [DRSC12270]
- Wolbachia per cell robust z, rep 1: -0.569
- Wolbachia per cell robust z, rep 2: -0.187
- Wolbachia per cell robust z, rep 3: -2.45

CG9577 [DRSC20693]
- Wolbachia per cell robust z, rep 1: -0.705
- Wolbachia per cell robust z, rep 2: 0.517
- Wolbachia per cell robust z, rep 3: -0.212

CG9577 [DRSC27691]
- Wolbachia per cell robust z, rep 1: -0.617
- Wolbachia per cell robust z, rep 2: -0.665
- Wolbachia per cell robust z, rep 3: -1.11

Nrx-IV [DRSC11238]
- Wolbachia per cell robust z, rep 1: 0.362
- Wolbachia per cell robust z, rep 2: -0.162
- Wolbachia per cell robust z, rep 3: 0.601

Nrx-IV [DRSC40798]
- Wolbachia per cell robust z, rep 1: -1.74
- Wolbachia per cell robust z, rep 2: -0.41
- Wolbachia per cell robust z, rep 3: -0.957

CG13994 [DRSC02326]
- Wolbachia per cell robust z, rep 1: -1.67
- Wolbachia per cell robust z, rep 2: -0.309
- Wolbachia per cell robust z, rep 3: -0.0916

sordd1 + sordd2 [DRSC20136]
- Wolbachia per cell robust z, rep 1: -0.255
- Wolbachia per cell robust z, rep 2: -2.93
- Wolbachia per cell robust z, rep 3: 0.548

sordd1 + sordd2 [DRSC28444]
- Wolbachia per cell robust z, rep 1: -1.44
- Wolbachia per cell robust z, rep 2: 0.609
- Wolbachia per cell robust z, rep 3: -0.402

CG31752 [DRSC22599]
- Wolbachia per cell robust z, rep 1: -2.57
- Wolbachia per cell robust z, rep 2: -0.453
- Wolbachia per cell robust z, rep 3: 0.65

CG11608 [DRSC14334]
- Wolbachia per cell robust z, rep 1: -4.43
- Wolbachia per cell robust z, rep 2: -0.0692
- Wolbachia per cell robust z, rep 3: -0.712
